{"source": "paper PMC2936744", "about": "(PLoS Pathogens, 2010)", "test_system": "HCVcc-1a/2a-Rluc", "assay_type": "cell-based, hepatitis C virus", "conditions": "mean of 8 independent experiments", "data": [{"substance": "IFN-α", "values": [{"measurement": "EC50 of the individual inhibitor in combination experiments", "result": 1.28, "unit": "IU/ml"}]}]}
